This note sets out measurements from patent US10345292B2, “Mammalian cell lines expressing functional nematode acetylcholine receptors and use thereof for high-throughput screening assays” (priority 2014, dated 2019).

This assay relates to Hco ACR-16/hRIC3 stable cell line (Flp-In-293-Hco ACR-16 hRic3). Briefly: Video-imaging fluorescence Ca2+ measurement (Fura-2 AM). The format is cell-based, Haemonchus contortus. The note with it: Epibatidine 300 nM following pre-incubation of 10 μM PNU-120596.

Each structure is given as a SMILES string.

Turning to `Clc1ccc(C2CC3CCC2N3)cn1` (centres unmarked) [Epibatidine], the “Reaction Time, Mean” value is 17.69 and the “Reaction Time, Median” value was 15.03.
